This is an account of results in US11787854B2, “Immunological targeting of pathological tau proteins” (New York University, priority 2009, dated 2023).

The test relates to JNPL3 P301L tangle mice. The test is described as follows: ELISA of plasma antibody response in immunized JNPL3 P301L mice. It counts as in vivo, mouse. Conditions: binding to an unrelated tau epitope linked via GPSL to TT947-967; plasma 1:200. In general terms: An ELISA detects its analyte on a solid surface through an enzyme-linked reagent.

Consider IGS*TE, for which the “antibody response against the tetanus toxin epitope” value was “A good portion of that antibody response is generated against the tetanus toxin epitope”.

Take SRT*PS*LP: the “antibody response against the tetanus toxin epitope” value is “strong antibody response”.
